Data reported in publication PMC10415612.

Key:
[1] = target: T1, HspR WT (Mycobacterium tuberculosis H37Rv) (UniProt O06302); experiment: binding assay; settings: recombinant protein, residues 2-126, protein details: expression tag removed (TEV)
T1 sequence (looked up): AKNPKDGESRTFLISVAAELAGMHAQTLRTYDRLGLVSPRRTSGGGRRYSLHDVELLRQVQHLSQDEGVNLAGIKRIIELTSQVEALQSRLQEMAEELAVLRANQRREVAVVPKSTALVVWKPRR

[2] = target: T2, HspRΔC9 del118-126 (Mycobacterium tuberculosis H37Rv) (UniProt O06302); experiment: binding assay; settings: 20S CPOG; recombinant protein; residues 2-117; protein details: expression tag removed (TEV)
T2 sequence (looked up): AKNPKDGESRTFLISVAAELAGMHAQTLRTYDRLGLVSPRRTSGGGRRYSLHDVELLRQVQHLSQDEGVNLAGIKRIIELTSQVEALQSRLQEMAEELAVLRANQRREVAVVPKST

Measured: binding result

CCGTCGAGGCAAGCTTGAGCGGGGTGCACTCATCATAGTGCAGGAAAGAA (double strand) [HAIR motif operator DNA]
binds: [1]; Bpa-Fl 200 nM, HspR:DNA 1:1, 20 C | [1] | [2]

Construct, isoform or probe ends are uncertain for at least one entry. At least one verdict was read from the data and is not stated in words by the source. Protein sequences can lack the tags named with them.
